A mixed list of measured activities; the numbers were collected in NIAID ChemDB.

Shared fields: host cell toxicity; cells: Huh7; read by: MTT; endpoint: CC50

Neighbouring rows are from separate reports.

{"compound": "O=C(NCc1cccc(Cl)c1)c1nc2ccccc2c(=O)n1O", "result": ">250 µM"}
{"compound": "Cc1nc(N)c2ncn([C@H]3O[C@@H](CO)[C@H](O)[C@@H]3O)c2n1", "result": ">100 µM"}
{"compound": "COC(=O)C(C)(C)NP(=O)(OC[C@H]1O[C@@H](c2ccc3c(N)ncnn23)[C@](C)(O)[C@@H]1O)Oc1cccc2ccccc12", "result": ">100 µM"}
{"compound": "NC(=O)[C@@H]1O[C@@H]1C(=O)Nc1cccc(Oc2ccccc2)c1", "result": "42 µM"}
{"compound": "O=C(NCCCc1ccccc1)c1nc2ccccc2c(=O)n1O", "result": "187.5 µM"}
{"compound": "C=C1[C@@H](n2cnc3c(N)ncnc32)[C@H](F)[C@H](O)[C@H]1CO", "result": ">300 µM"}
{"compound": "Cc1ccc(Sc2ccccc2)c(Nc2ncnc3nc(CC(C)C)ccc23)c1", "result": "7.5 µM"}
{"compound": "CS(=O)(=O)Nc1ccc2c(c1)S(=O)(=O)N=C(c1c(O)c3ccccc3n(NC3CCC3)c1=O)N2", "result": ">10 µM"}
{"compound": "NC(=O)[C@@H]1O[C@@H]1C(=O)Nc1ccccc1", "result": ">100 µM"}
{"compound": "C[C@@]1(O)[C@H](O)[C@@H](CO)O[C@H]1c1cnc2c(N)ncnn12", "result": "34 µM"}
{"compound": "C=C1[C@H](CO)[C@@H](O)C[C@@H]1n1cnc2c(=O)[nH]c(N)nc21", "result": "28 µM"}
{"compound": "CCOC(=O)[C@H](C)NP(=O)(OC[C@H]1O[C@@H](c2cnc3c(=O)[nH]c(N)nn23)[C@](C)(O)[C@@H]1O)Oc1cccc2ccccc12", "result": ">100 µM"}
{"compound": "CCSc1ncc2c(Nc3cc(C)ccc3Sc3ccc(O)cc3)ncnc2n1", "result": "46.9 µM"}
{"compound": "NC(=O)[C@@H]1O[C@@H]1C(=O)Nc1ccc(Oc2ccc([N+](=O)[O-])cc2)cc1", "result": "62 µM"}
{"compound": "OCc1nc(-c2cnc(N3CCC(Oc4ccccc4C(F)(F)F)CC3)s2)no1", "result": ">5 µM"}
{"compound": "CCOC(=O)C1(NP(=O)(OC[C@H]2O[C@@H](c3cnc4c(=O)[nH]c(N)nn34)[C@](C)(O)[C@@H]2O)Oc2cccc3ccccc23)CCC1", "result": ">100 µM"}
{"compound": "O=C(NCc1ccc([N+](=O)[O-])cc1)c1nc2ccccc2c(=O)n1O", "result": ">250 µM"}
{"compound": "NC(=O)[C@@H]1O[C@@H]1C(=O)Nc1ccc(Br)c(Cl)c1", "result": "2 µM"}
{"compound": "COc1ccc(CNC(=O)c2nc3ccccc3c(=O)n2O)cc1", "result": "175 µM"}
{"compound": "NC(=O)[C@@H]1O[C@@H]1C(=O)Nc1cccc(Cl)c1", "result": ">100 µM"}
{"compound": "CCO[C@H]1C(C)=CN(c2ccc([N+](=O)[O-])cc2)[C@H](c2ccc(Cl)cc2)[C@@H]1C", "result": ">100 µM"}
{"compound": "CCC[C@H](NC(=O)[C@@H]1[C@H]2CCC[C@H]2CN1C(=O)[C@@H](NC(=O)[C@@H](NC(=O)c1cnccn1)C1CCCCC1)C(C)(C)C)C(=O)C(=O)NC1CC1", "result": "37 µM"}
{"compound": "Cc1ccc(Sc2ccc(O)cc2)c(Nc2ncnc3nc(N4CCCCC4)ncc23)c1", "result": ">50 µM"}
{"compound": "O=C(NCc1cccs1)c1cc2nc(-c3ccco3)cc(C(F)(F)Cl)n2n1", "result": ">0.454 µM"}
{"compound": "O=C(NCc1ccc(Cl)cc1)c1nc2ccccc2c(=O)n1O", "result": "215.7 µM"}
{"compound": "O=C(Cn1nnc2cc3cccnc3c(Cl)c21)Cn1nnc2cc3cccnc3c(Cl)c21", "result": ">100 µM"}
{"compound": "COc1ccc(Sc2ccc(C)cc2Nc2ncnc3nc(C)ccc23)cc1", "result": "28.6 µM"}
{"compound": "O=C(NCc1ccc(Cl)c(Cl)c1)c1nc2ccccc2c(=O)n1O", "result": "202.1 µM"}
{"compound": "C[C@@]1(O)[C@H](O)[C@@H](CO)O[C@H]1c1ccc2c(=O)[nH]c(N)nn12", "result": ">100 µM"}

Repeating the first 4 entries:

| compound | result |
|---|---|
| O=C(NCc1cccc(Cl)c1)c1nc2ccccc2c(=O)n1O | >250 µM |
| Cc1nc(N)c2ncn([C@H]3O[C@@H](CO)[C@H](O)[C@@H]3O)c2n1 | >100 µM |
| COC(=O)C(C)(C)NP(=O)(OC[C@H]1O[C@@H](c2ccc3c(N)ncnn23)[C@](C)(O)[C@@H]1O)Oc1cccc2ccccc12 | >100 µM |
| NC(=O)[C@@H]1O[C@@H]1C(=O)Nc1cccc(Oc2ccccc2)c1 | 42 µM |

CCn: concentration that lowers growth or viability of the cells by n%.